Laboratory results: PMC6709497, “Identification of Novel Trypanosoma cruzi Proteasome Inhibitors Using a Luminescence-Based High-Throughput Screening Assay” (Antimicrobial Agents and Chemotherapy, 2019)

System: T. cruzi strain Silvio X10/7 epimastigotes
Assay: Cellular T. cruzi epimastigote viability assay
Format: cell-based, Trypanosoma cruzi
Conditions: cell-free pIC50 compared with cellular pEC50
Protocol: For the cell viability readout, BacTiter-Glo microbial cell viability reagent (Promega; catalogue no. G8230) was added to each well (25 μl) and incubated at room temperature for 5 min. The plates were then sealed with clear film, and the luminescence was read using a Victor 3 (PerkinElmer, USA) or Pherastar FS (BMG Labtech, Germany) plate reader with a 0.5-s per well reading time. Data for epoxomicin were obtained from three independent replicates (n = 3), and data for all the remaining compounds were acquired from four independent replicates (n = 4). RLU data were normalized to percent inhibition values relative to 100% effect (Nifurtimox) and 0% effect (DMSO; 1% [vol/vol] final assay concentration) control populations. Normalized data for each independent replicate were fitted separately to a four-parameter logistic regression model, and pEC50 {i.e., −log(EC50[M])} values were calculated using IBDS ActivityBase 8.1.2.12 software, after which a mean pEC50 value for each compound was calculated.

Molecule	potency in cell-free chymotrypsin-like activity assay versus cellular assay
CC[C@H](C)[C@H](NC(=O)[C@H]([C@@H](C)CC)N(C)C(C)=O)C(=O)N[C@H](C(=O)N[C@@H](CC(C)C)C(=O)[C@@]1(C)CO1)[C@@H](C)O [Epoxomicin, epoxomicin]	equipotency
oprozomib	equipotency
